Measured values from several laboratories, pooled; numbers as filed in NIAID ChemDB.

Common to all: growth or infection tests; agent: Human cytomegalovirus

Neighbouring rows are from separate reports. ECn is the concentration giving n% inhibition of infection, replication or growth. Blank or dashed fields: not listed here.

compound,cell line,read-out,method,strain,result
Cc1cc([C@H]2C[C@H](O)[C@@H](CO)O2)c(F)cc1Cl,HEL,EC50,cytopathic effect,AD169,>200 µM
c1ccn2cc(-c3ccsc3)cc2c1,MRC-5,EC50,plaque count,AD169,>100 µM
Nc1ccn([C@H]2O[C@@H](CO)[C@H](O)[C@H]2F)c(=O)n1,FLOW 2002,EC50,plaque count,WF1,>100 µg/mL
OC[C@H]1O[C@@H](c2cc(I)c(F)cc2F)C[C@@H]1O,HEL,EC50,cytopathic effect,AD169,>200 µM
Cn1cc(C(=O)NCc2ccc(Cl)cc2)c(=O)c2cc(CN3CCOCC3)ccc21,HFF,EC50,plaque count,AD169,0.8 µM
CCC(C)Nc1ccc(Sc2ccc(O)cc2)cc1,-,EC50,plaque count,AD169,30 µM
Cc1cc([C@@H]2C[C@H](O)[C@@H](CO)O2)c(F)cc1F,HEL,EC50,cytopathic effect,AD169,>200 µM
COC(=O)C(Cc1c[nH]c2ccccc12)NP(=O)(O)OCC1C/C1=C/n1cnc2c(N)ncnc21,HFF,EC50,cytopathic effect,AD169,5.2 µM
Nc1nc2ncn(/C=C3/C(F)C3(CO)CO)c2c(=O)[nH]1,HFF,EC50,cytopathic effect,TOWNE,>100 µM
[O-][n+]1onc2ncnc(N3CC[N+]4(CC3)CC[N+]3(CCN(c5ncnc6no[n+]([O-])c56)CC3)CC4)c21,MRC-5,EC50,ELISA,-,12.3 µM
CCOCn1ccc(=O)n(Cc2cc(C)cc(C)c2)c1=O,-,EC50,-,AD169,>170 µM
OC[C@H]1O[C@H](c2cc(I)c(F)cc2F)C[C@@H]1O,HEL,EC50,cytopathic effect,DAVIS,125 µM
Nc1nc2c(ncn2COC(CO)CO)c(=O)[nH]1,MRC-5,EC50,plaque count,Isolate T137,3.48 µM
COC(=O)[C@H](C)NP(=O)(OCC1C/C1=C/n1cnc2c(N)ncnc21)Oc1ccccc1,HFF,EC50,plaque count,TOWNE,0.14 µM
OC[C@H]1O[C@@H](n2c(Br)nc3cc(Cl)c(Cl)cc32)C[C@@H]1O,HFF,EC90,virus yield,TOWNE,6 µM
Cc1nc2ccccn2c1NC(=O)c1ccccc1,HEL,EC50,cytopathic effect,AD169,>50 µg/mL
Nc1ccn(C[C@@H](CO)OCP(=O)(O)O)c(=O)n1,HELF,EC50,plaque count,HE,0.49 µM
C[C@H](NC(=S)Nc1ccc(NC(=O)c2cncs2)nc1)c1cc(C(F)(F)F)cc(C(F)(F)F)c1,HFF,EC50,virus yield,-,0.001 µg/mL
Nc1nc2c(ncn2COC(CO)CO)c(=O)[nH]1,HFF,EC50,cytopathic effect,DAVIS,1.6 µM
Nc1ccn([C@@H]2O[C@@H](CO)[C@H](O)[C@H]2O)c(=O)n1,FLOW 2002,EC50,plaque count,WF1,6 µg/mL
C#CCN1C(=O)c2ccccc2N(Cc2ccc(Cl)cc2)S1(=O)=O,MRC-5,EC50,plaque count,AD169,6.9 µM
[N-]=[N+]=Nc1nc2cc(Cl)c(Cl)cc2n1[C@H]1C[C@H](O)[C@@H](CO)O1,HFF,EC90,virus yield,TOWNE,38 µM
Cc1cc(C)cc(Cn2c(=O)ccn(Cc3ccccc3Cl)c2=O)c1,-,EC50,-,AD169,21 µM
Nc1nc2c(ncn2[C@@H]2O[C@H](CO)[C@H]2CO)c(=O)[nH]1,HEL,EC50,plaque count / crystal violet,AD169,0.062 µg/mL
CC(=O)N(O)CCCCCNC(=O)CCC(=O)N(O)CCCCCNC(=O)CCC(=O)N(O)CCCCCN,HFF,EC90,plaque count,AD169,17.3 µM
Nc1nc2c(ncn2[C@@H]2C[C@H](CO)[C@H]2CO)c(=O)[nH]1,MRC-5,EC50,plaque count,AD169 (ganciclovir foscarnet-susceptible),4.45 µM
CC(=O)c1ccc2cc(-c3ccccc3)cn2c1,MRC-5,EC50,plaque count,AD169,>100 µM
CNc1cccc2c(S(=O)(=O)Nc3ccc(NC(=O)C(C)(C)CO)cc3)cccc12,-,EC50,plaque count,Ganciclovir-resistant,12.5 µM
CCCCN1C(=O)c2ccccc2N(C(=O)c2ccc(C)cc2)S1(=O)=O,MRC-5,EC50,plaque count,AD169,2.8 µM
CCc1ccc2cc(-c3ccccc3)cn2c1,MRC-5,EC50,plaque count,AD169,10 µM
CCOC(=O)/C=C/C=C/[C@H]1O[C@@H](n2ccc(=O)[nH]c2=O)[C@H](O)[C@@H]1O,HEL,EC50,-,DAVIS,>120 µM
OC[C@H]1O[C@@H](n2c(Br)nc3cc(Cl)c(Cl)cc32)[C@H](O)[C@@H]1O,MRC-5,EC50,plaque count,1038RA 5-2-3 (plaque-purified 1038RA strain),6 µM
Cc1cc(C)cc(Cn2c(=S)ccn(Cc3ccco3)c2=O)c1,-,EC50,-,AD169,13 µM
Nc1ccn([C@@H]2O[C@H](CO)[C@@H](O)[C@@H]2O)c(=O)n1,FLOW 2002,EC50,plaque count,WF1,0.02 µg/mL
CN(C)c1cccc2c(S(=O)(=O)Nc3ccc(NC(=O)C(C)(C)CO)cc3)cccc12,-,EC50,plaque count,ULM B3 (ganciclovir-resistant),1.48 µM
Oc1ccc(Oc2ccc(NC3CCCCC3)cc2)cc1,-,EC50,plaque count,AD169,3.6 µM
OC[C@H]1O[C@@H](c2ccc(F)cc2F)C[C@@H]1O,HEL,EC50,cytopathic effect,AD169,>200 µM
Cc1cc(C)cc(Cn2c(=S)ccn(Cc3ccoc3)c2=O)c1,-,EC50,-,AD169,12 µM
CC(C)(C)[Si](OC[C@H]1C[C@@H](Cn2cnc3c(Cl)nc(N)nc32)c2cn(Cc3ccccc3)nc21)(c1ccccc1)c1ccccc1,HEL,EC50,-,AD169,0.44 µM
Nc1nc2c(ncn2[C@@H]2C[C@H](CO)[C@H]2CO)c(=O)[nH]1.O=C(O)P(=O)(O)O,MRC-5,EC75,plaque count,Towne (ganciclovir- foscarnet-susceptible),0.93 µM
Nc1nc2c(ncn2/C=C2/CC2(CO)CO)c(=O)[nH]1,HFF,EC50,plaque count,C9209 1-4-4 ganciclovir- and foscarnet-resistant,1.5 µM
Nc1ccn(C[C@@H](CO)OCP(=O)(O)O)c(=O)n1.O=C(O)P(=O)(O)O,MRC-5,EC50,plaque count,AD169 (ganciclovir foscarnet-susceptible),1.08 µM
Fc1cccc(-c2cc3ccccn3c2)c1,MRC-5,EC50,plaque count,AD169,>100 µM
CC(C)N(C)c1ccc(Oc2ccc(O)cc2)cc1,-,EC50,plaque count,AD169,11.6 µM
CC(C)OC(=O)c1c(C(C)C)cc2ccccn12,MRC-5,EC50,plaque count,AD169,>100 µM
Nc1nc2c(ncn2C=C2CC2CO)c(=O)[nH]1,-,EC50,plaque count,VR4990 (ganciclovir-resistant),1.5 µM
C[C@H](NC(=S)Nc1ccc(NC(=O)c2csnn2)cn1)c1cc(C(F)(F)F)cc(C(F)(F)F)c1,HFF,EC50,virus yield,-,0.08 µg/mL
COC(=O)c1cccn2cc(-c3ccccc3)cc12,MRC-5,EC50,plaque count,AD169,>100 µM
Cc1nc2ccccn2c1NC(=S)Nc1ccccc1,HEL,EC50,cytopathic effect,DAVIS,10 µg/mL
CC(C)Nc1nc2cc(Cl)c(Cl)cc2n1[C@H]1C[C@H](O)[C@@H](CO)O1,HFF,EC90,virus yield,TOWNE,18 µM
FC(F)(F)c1cc(Cl)c2cc(-c3ccccc3)cn2c1,MRC-5,EC50,plaque count,AD169,>100 µM
COc1ccc(Oc2ccc(NC3CCCCCCC3)cc2)cc1,-,EC50,plaque count,AD169,40 µM
N#Cc1cc([C@H]2C[C@H](O)[C@@H](CO)O2)c(F)cc1F,HEL,EC50,cytopathic effect,DAVIS,>200 µM
CCN(C)c1ccc(Oc2ccccc2)cc1,-,EC50,plaque count,AD169,>100 µM
CCOC1=NS(=O)(=O)N(Cc2ccc(Cl)cc2)c2ccccc21,MRC-5,EC50,plaque count,AD169,2.8 µM
O=C(O)P(=O)(O)O,MRC-5,EC50,plaque count,PAAR,93.99 µM
O[C@@H]1[C@H](O)[C@H](O)CO[C@H]1n1c(Br)nc2cc(Cl)c(Cl)cc21,MRC-5,EC50,plaque count,4760REC (V715M),1.3 µM
CC(=O)c1c(-c2ccccc2)cc2ccccn12,MRC-5,EC50,plaque count,AD169,>100 µM
Nc1nc2c(ncn2COC(CO)CO)c(=O)[nH]1,HEL,EC50,plaque count / crystal violet,AD169,0.16 µg/mL
Cc1cc([C@H]2C[C@H](O)[C@@H](CO)O2)c(F)cc1F,HEL,EC50,cytopathic effect,DAVIS,>200 µM
Cc1cc(C)cc(Cn2c(C)cc(=O)n(CC#N)c2=O)c1,-,EC50,-,AD169,>710 µM
Oc1ccc(Oc2ccc(NC3CCCCCC3)cc2)cc1,-,EC50,plaque count,AD169,4.1 µM
Nc1ccn([C@H]2O[C@@H](CO)[C@@H](O)[C@@H]2O)c(=O)n1,FLOW 2002,EC50,plaque count,WF1,100 µg/mL
CCCCN1C(=O)c2ccccc2N(Cc2ccccc2)S1(=O)=O,MRC-5,EC50,plaque count,AD169,7.6 µM
NC(=S)N/N=C/c1ccc(OC(F)(F)F)cc1,Human foreskin fibroblasts,EC90,cytopathic effect,AD169,>60 µM
OC[C@H]1O[C@@H](n2c(SCc3ccccc3)nc3cc(Cl)c(Cl)cc32)C[C@@H]1O,HFF,EC50,plaque count,TOWNE,>100 µM
CCC(C)Nc1ccc(Oc2cccc(O)c2)cc1,-,EC50,plaque count,AD169,32.5 µM
Nc1ccn([C@H]2C[C@H](CO)[C@@H](CO)O2)c(=O)n1,-,EC50,-,-,1.7 µg/mL
Cc1cccc(Cn2c(=O)ccn(CC#N)c2=O)c1,-,EC50,-,AD169,>196 µM
CCN1C(=O)c2ccccc2N(Cc2ccc(Cl)cc2)S1(=O)=O,MRC-5,EC50,plaque count,AD169,2.8 µM

For reference, 6 entries again:

CCc1ccc2cc(-c3ccccc3)cn2c1 ; cell line: MRC-5 ; read-out: EC50 ; method: plaque count ; strain: AD169 ; result: 10 µM
N#Cc1cc([C@H]2C[C@H](O)[C@@H](CO)O2)c(F)cc1F ; cell line: HEL ; read-out: EC50 ; method: cytopathic effect ; strain: DAVIS ; result: >200 µM
[N-]=[N+]=Nc1nc2cc(Cl)c(Cl)cc2n1[C@H]1C[C@H](O)[C@@H](CO)O1 ; cell line: HFF ; read-out: EC90 ; method: virus yield ; strain: TOWNE ; result: 38 µM
Nc1ccn([C@@H]2O[C@H](CO)[C@@H](O)[C@@H]2O)c(=O)n1 ; cell line: FLOW 2002 ; read-out: EC50 ; method: plaque count ; strain: WF1 ; result: 0.02 µg/mL
FC(F)(F)c1cc(Cl)c2cc(-c3ccccc3)cn2c1 ; cell line: MRC-5 ; read-out: EC50 ; method: plaque count ; strain: AD169 ; result: >100 µM
Cn1cc(C(=O)NCc2ccc(Cl)cc2)c(=O)c2cc(CN3CCOCC3)ccc21 ; cell line: HFF ; read-out: EC50 ; method: plaque count ; strain: AD169 ; result: 0.8 µM